# Measurements: article PMC4945415 (Journal of medicinal chemistry, 2016)
# System: Hz formation in cultured P. falciparum
substance,measurement,setting,value
"5-(tert-Butyl)-N,N-di(pyridin-3-yl)isophthalamide [Compound 15i]",decrease in Hz (ΔHz),"at 2.5 times the IC50, 32 h, relative to control",~ 40 fg/cell
"5-(tert-Butyl)-N,N-diphenylisophthalamide [Compound 15j]",change in free heme or Hz levels with increasing concentration,negative control compound,No significant change
"N,N-bis(4-((Dimethylamino)methyl)phenyl)-5-nitroisophthalamide [Compound 17]",non-Hz heme,"at the IC50 of 17, control 7%",41%
